From paper PMC5557545, “Biochemical characterization of recombinant influenza A polymerase heterotrimer complex: Endonuclease activity and evaluation of inhibitors” (PLoS ONE, 2017)

Target: influenza A polymerase acidic protein (PA), full length, N-terminal 3x FLAG tag, P03433
Details: AUC

B1: influenza A polymerase basic protein 1 (PB1), full length, untagged (protein)
chain: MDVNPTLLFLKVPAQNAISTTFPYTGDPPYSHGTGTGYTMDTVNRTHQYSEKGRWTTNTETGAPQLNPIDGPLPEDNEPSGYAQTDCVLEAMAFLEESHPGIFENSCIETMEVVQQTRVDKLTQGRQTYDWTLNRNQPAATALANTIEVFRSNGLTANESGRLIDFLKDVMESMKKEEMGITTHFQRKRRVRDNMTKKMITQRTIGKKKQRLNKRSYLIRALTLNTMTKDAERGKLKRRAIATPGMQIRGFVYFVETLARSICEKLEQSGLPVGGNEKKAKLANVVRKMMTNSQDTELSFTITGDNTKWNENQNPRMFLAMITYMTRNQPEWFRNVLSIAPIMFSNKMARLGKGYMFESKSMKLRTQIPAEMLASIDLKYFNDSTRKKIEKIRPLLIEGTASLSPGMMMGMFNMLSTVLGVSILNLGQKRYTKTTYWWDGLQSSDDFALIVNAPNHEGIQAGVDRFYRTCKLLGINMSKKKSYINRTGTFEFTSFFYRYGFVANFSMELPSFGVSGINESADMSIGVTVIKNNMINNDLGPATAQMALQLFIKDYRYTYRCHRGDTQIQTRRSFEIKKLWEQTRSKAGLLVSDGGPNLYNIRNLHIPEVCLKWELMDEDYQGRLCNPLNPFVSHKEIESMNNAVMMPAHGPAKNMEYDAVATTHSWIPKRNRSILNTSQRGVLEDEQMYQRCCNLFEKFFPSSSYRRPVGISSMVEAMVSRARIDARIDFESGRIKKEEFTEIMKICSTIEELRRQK
percent heterodimer: the PA/PB1 exists primarily as a heterodimer of 174 kD (81%
